# Measurements as given in patent US20220110985A1, “NUTRITIONAL COMPOSITION COMPRISING 2'FUCOSYLLACTOSE AND 3'GALACTOSYLLACTOSE” (N.V. Nutricia, priority 2019, published 2022).
# System: infant intestinal microbiota
# Experiment: quad-SHIME infant intestinal microbiota model (SCFA, glycoprofile)
# Type: cell-based, human infant faecal inoculum
# Excerpt: A faecal sample from a healthy infant born via C-section, exclusively breastfed with no history of antibiotic usage, was used as inoculum to simulate the infant intestinal microbiota in the colon compartments of a quad-SHIME®—a dynamic model of the human gastrointestinal tract comprises 4 SHIME® units running in parallel and each SHIME® unit is composed of 3 reactors simulating the stomach and small intestine, proximal and distal colons.
compound,measurement,setting,value
"C[C@@H]1O[C@@H](O[C@H]2[C@H](O[C@H]3[C@H](O)[C@@H](O)C(O)O[C@@H]3CO)O[C@H](CO)[C@H](O)[C@@H]2O)[C@@H](O)[C@H](O)[C@@H]1O (stereo partly drawn) [2′-FL, α-L-Fuc-(1→2)-β-D-Gal-(1→4)-D-Glc]",metabolisation by the microbiota (glycoprofile),in the presence of scGOS/lcFOS,slowly metabolised across the proximal and distal colon
same,metabolisation by the microbiota (glycoprofile),supplemented alone,not metabolized when supplemented alone
